Laboratory results reported in US11312773B2, “Anti-PD-L1 antibody” (Fuso Pharmaceutical Industries, Ltd., priority 2016, dated 2022).

System: BLV (bovine leukemia virus)
Settings: BLV-infected calf, 1 mg/kg i.v., until end of test period

B1: ch4G12: rat-bovine chimeric anti-bovine PD-L1 antibody, 4G12 variable regions, mutated bovine IgG1 and Igλ constant regions; SEQ ID NOS: 105 and 106 (protein)
light: MESQTHVLISLLLSVSGTYGDIAITQSPSSVAVSVGETVTLSCKSSQSLLYSENQKDYLGWYQQKPGQTPKPLIYWATNRHTGVPDRFTGSGSGTDFTLIISSVQAEDLADYYCGQYLVYPFTFGPGTKLELKQPKSPPSVTLFPPSTEELNGNKATLVCLISDFYPGSVTVVWKADGSTITRNVETTRASKQSNSKYAASSYLSLTSSDWKSKGSYSCEVTHEGSTVTKTVKPSECS
heavy: MGWSQIILFLVAAATCVHSQVQLQQSGAELVKPGSSVKISCKASGYTFTSNFMHWVKQQPGNGLEWIGWIYPEYGNTKYNQKFDGKATLTADKSSSTAYMQLSSLTSEDSAVYFCASEEAVISLVYWGQGTLVTVSSASTTAPKVYPLSSCCGDKSSSTVTLGCLVSSYMPEPVTVTWNSGALKSGVHTFPAVLQSSGLYSLSSMVTVPGSTSGQTFTCNVAHPASSTKVDKAVDPTCKPSPCDCCPPPPVAGPSVFIFPPKPKDTLTISGTPEVTCVVVDVGHDDPEVKFSWFVDDVEVNTATTKPREEQFNSTYRVVSALRIQHQDWTGGKEFKCKVHNEGLPSSIVRTISRTKGPAREPQVYVLAPPQEELSKSTVSLTCMVTSFYPDYIAVEWQRNGQPESEDKYGTTPPQLDADSSYFLYSKLRVDRNSWQEGDTYTCVVMHEALHNHYTQKSTSKSAGK
modifications: chimeric L chain; chimeric H chain
- BLV provirus load vs before administration: significantly decreased
